Data: PubChem BioAssay AID504832 (National Center for Advancing Translational Sciences (NCATS), 2011)
The list shows a part of the results, in another mix than the full data. Inconclusive results are not listed. Some salts or complexes appear as unconnected parts, following the source record. Activity calls are given as the source filed them. Calls come from the whole dose curve; as a rule, active = well fitted inhibition curve with a large enough effect; inconclusive = small, poorly fitted or top-dose-only effect, or another doubt; inactive = no such curve, though single readings can be large or run the other way.
% is set by controls: 0 for no effect and ±100 for the full control effect.

Assay: Primary qHTS for delayed death inhibitors of the malarial parasite plastid, 48 hour incubation
Conditions: P. falciparum luciferase growth in erythrocytes; at 28.7 µM (top of the series)
From the text: The goal of this screen is to discover new antimalarial compounds that act by inhibiting the development of the apicoplast in the malarial parasite Plasmodium falciparum. The biochemical processes that make this organelle essential for erythrocytic stage parasites are not well understood. However, antibiotics such as azithromycin and tetracycline, which target the apicoplast translational machinery, have a potent antimalarial effect.
We have developed a cell-based assay that measures parasite growth based on the expression of an integrated copy of a firefly luciferase reporter. To detect small molecules that cause this "delayed death" phenotype, erythrocytes infected with the luciferase-expressing parasites were incubated with compounds for either one or two generations, corresponding to 48 and 96 hours, respectively. Compounds that inhibit parasite growth in the second generation, but not the first, should be enriched in antimalarials that target the apicoplast. Growth inhibition is detected by a decrease in luciferase activity.
Assay Provider: David Fidock and Eric Ekland, Columbia University
Keywords: NIH Roadmap, MLPCN, MLI, MLSMR, qHTS, NCGC, qHTS, malaria, luciferase, viability
Four microliters of culture medium (RPMI 1640 with 0.5% w/v Albumax (GIBCO), 24 mM sodium bicarbonate and 10 ug/mL gentamycin) were dispensed by a Multi-drop Combi into white solid 1536-well plates (Grenier) and 23 nL compound was added by a pin tool. Four microliters of infected erythrocytes (2% hematocrit, 0.1% parasitemia final concentration) in culture medium were dispensed and the plates incubated for 48 hours at 37 C in 5% CO2. Two microliters of luciferase detection reagent was added and luminescence was detected by a ViewLux (PerkinElmer) reader.
In the case of `O=[N+]([O-])c1cc([N+](=O)[O-])c(OC2CCCCC2O)c([N+](=O)[O-])c1` (configuration not stated), the activity change, negative = inhibition is reported as inactive: 16.2%.
With `O=C(OC1CN2CCC1CC2)c1ccc([N+](=O)[O-])cc1` (configuration not stated) the activity change, negative = inhibition was inactive: 11.7%.
With `COc1ccc2c(c1O)-c1c(O)c(OC)cc3c1[C@H](C2)[N+](C)(C)CC3.O=[N+]([O-])c1cc([N+](=O)[O-])c([O-])c([N+](=O)[O-])c1[O-]` the activity change, negative = inhibition was inactive: -7.16%.
For `O=[N+]([O-])c1cc([N+](=O)[O-])c(NCC2CCS(=O)(=O)C2)c([N+](=O)[O-])c1` (configuration not stated), the activity change, negative = inhibition was inactive: 42.5%.
For `CCOC(=O)C(CC)C1=NC(C)(C)Cc2ccccc21.O=[N+]([O-])c1cc([N+](=O)[O-])c(O)c([N+](=O)[O-])c1` (configuration not stated), the activity change, negative = inhibition was inactive: 63.3%.
With `N/C(=N\O)c1c(N)no[n+]1[O-]` the activity change, negative = inhibition was inactive: 2.94%.
In the case of `O=C(O)c1cccc(Nc2c([N+](=O)[O-])cc([N+](=O)[O-])cc2[N+](=O)[O-])c1`, the activity change, negative = inhibition is reported as inactive: -1.51%.
